Results of unrelated studies side by side (data: NIAID ChemDB).

Common to all: enzyme or target tests; organism: HIV-1; protein: Reverse transcriptase

An empty or dashed field is not shown.

{"SMILES": "OCc1cn(Cc2ccncc2)c(Sc2cc(Cl)cc(Cl)c2)c1C1CCC1", "method": "nucleotide incorporation / radiometric", "endpoint": "IC50", "changes": "RT-L100I", "value": "1.16 µM"}
{"SMILES": "CCC1(c2cccc(I)c2)Oc2ccccc2-n2cccc2C1=O", "method": "nucleotide incorporation / radiometric", "endpoint": "IC50", "changes": "RT-K103N", "value": ">10 µM"}
{"SMILES": "NS(=O)(=O)c1ccc(NC(=O)CSc2nnnn2-c2cccc(Cl)c2Cl)c(Cl)c1", "endpoint": "IC50", "changes": "RT-K103N", "value": "0.009 µM"}
{"SMILES": "O=C(Nc1cc(-c2ccc3c(c2)CCCC3)[nH]n1)c1cccs1", "method": "RT activity / nucleotide incorporation / luminescence", "endpoint": "IC50", "strain": "NL4-3", "changes": "WT", "value": "1.5 µM"}
{"SMILES": "CCCCOc1ccc(CSc2nc(Cc3c(Cl)cccc3Cl)c(C)c(=O)[nH]2)cc1", "method": "nucleotide incorporation / radiometric", "endpoint": "IC50", "changes": "RT-K103N", "value": ">400 µM"}
{"SMILES": "CC(C)C[C@@H](c1c(O)c(C=O)c(O)c(C=O)c1O)[C@@]1(C)CC[C@@H]2[C@@H]1[C@H]1[C@@H](CC[C@@]2(C)O)C1(C)C", "method": "RT activity", "endpoint": "IC50", "value": "10 µM"}
{"SMILES": "Cc1cc(C)cc(Cc2cc(=O)[nH]c(OC3CCCC3)n2)c1", "method": "nucleotide incorporation", "endpoint": "IC50", "strain": "IIIB", "value": "3 µM"}
{"SMILES": "C[C@@H](NC(=S)Nc1ccccn1)C1CCCCC1", "method": "nucleotide incorporation", "endpoint": "Ki", "strain": "IIIB", "value": "100 µM"}
{"SMILES": "C=C(CC[C@@H](C)[C@H]1CC[C@@]2(C)[C@@H]3CC[C@H]4C(C)(C)[C@@H](O)CC[C@]4(C)C3=CC[C@]12C)C(C)C", "method": "nucleotide incorporation", "endpoint": "IC50", "value": ">45 µM"}
{"SMILES": "COc1cc2c(ccc3c4cc(OC)c(OC)cc4c[n+](C)c23)cc1O", "endpoint": "IC50", "value": "22 µM"}
{"SMILES": "Cc1c(Sc2ccccc2)n(COCCO)c(=O)[nH]c1=O", "method": "nucleotide incorporation", "endpoint": "IC50", "changes": "RT-Y181I", "value": "2.8 µM"}
{"SMILES": "Cc1cc(C)c(-n2nnnc2SCC(=O)Nc2ccc(C(N)=O)cc2C)c(C)c1", "endpoint": "IC50", "changes": "RT-K103N", "value": "0.055 µM"}
{"SMILES": "O=C(Nc1cc(-c2ccc3c(c2)CCCC3)[nH]n1)c1ncccn1", "method": "RT activity / nucleotide incorporation / luminescence", "endpoint": "IC50", "strain": "NL4-3", "changes": "WT", "value": "1.1 µM"}
{"SMILES": "CC(C)C[C@H](c1c(O)c(C=O)c(O)c(C=O)c1O)[C@@]1(C)CC[C@@H]2[C@@H]1[C@H]1[C@@H](CC[C@@]2(C)O)C1(C)C", "method": "RT activity", "endpoint": "IC50", "value": "5.3 µM"}
{"SMILES": "CC1(C)c2ccc3c(c2CC[C@H]1O)CC[C@@]1(C)[C@@H]2C[C@](C)(CO)CC[C@]2(C)CC[C@]31C", "method": "nucleotide incorporation", "endpoint": "IC50", "value": "4.3 µM"}
{"SMILES": "Cc1cccc(Cc2nc(OC3CCCCC3)[nH]c(=O)c2C)c1", "method": "nucleotide incorporation", "endpoint": "IC50", "strain": "IIIB", "value": "1.7 µM"}
{"SMILES": "C=C(C)OC(=O)N1c2cc(Cl)ccc2NC(=S)C1(C)C", "method": "nucleotide incorporation", "endpoint": "IC50", "strain": "MN", "value": "0.14 µM"}
{"SMILES": "C=C(C)[C@@H]1CC[C@]2(C(=O)OC)CC[C@]3(C)[C@H](CC[C@@H]4[C@@]5(C)CC[C@H](O)C(C)(C)[C@@H]5CC[C@]43C)[C@@H]12", "method": "nucleotide incorporation", "endpoint": "IC50", "value": "11 µM"}
{"SMILES": "Nc1ccn([C@@H]2CS[C@H](COP(=O)(O)OP(=O)(O)OP(=O)(O)O)O2)c(=O)n1", "endpoint": "Ki", "value": "0.28 µM"}
{"SMILES": "CCC1(c2ccc(COc3ccccc3)cc2)Oc2ccccc2-n2cccc2C1=O", "method": "nucleotide incorporation / radiometric", "endpoint": "IC50", "changes": "RT-V106A", "value": "0.8 µM"}
{"SMILES": "Cc1cn([C@@H]2O[C@H](CO[Si](C)(C)C(C)(C)C)C3(OS(=O)(=O)C=C3N)[C@H]2O[Si](C)(C)C(C)(C)C)c(=O)n(C)c1=O", "method": "nucleotide incorporation", "endpoint": "IC50", "value": "4.09 µM"}
{"SMILES": "CCc1c(Sc2ccccn2)n(COCc2ccccc2)c(=O)[nH]c1=O", "endpoint": "IC50", "strain": "WT", "value": "7 µM"}
{"SMILES": "Nc1ncnc2c1ncn2[C@H]1C[C@H](O)[C@]2(COP(=O)(O)OP(=O)(O)OP(=O)(O)O)C[C@H]12", "method": "nucleotide incorporation / radiometric", "endpoint": "IC50", "value": "0.5 µM"}
{"SMILES": "C=C(C)[C@@H]1CC[C@]2(C)CC[C@]3(C)[C@H](CC[C@@H]4[C@@]5(C)CCC(=O)C(C)(C)[C@@H]5CC[C@]43C)[C@@H]12", "method": "nucleotide incorporation", "endpoint": "IC50", "value": "2.1 µM"}
{"SMILES": "CCC1(c2ccc(/C=C/c3ccccc3)cc2)Oc2ccccc2-n2cccc2C1=O", "method": "nucleotide incorporation / radiometric", "endpoint": "IC50", "strain": "WT", "value": ">100 µM"}
{"SMILES": "CC1(C)CC[C@]2(C)CC[C@]3(C)C(=CC[C@@H]4[C@@]5(C)CC[C@H](O)C(C)(C)[C@@H]5CC[C@]43C)[C@@H]2C1", "method": "nucleotide incorporation", "endpoint": "IC50", "value": "4.7 µM"}
{"SMILES": "NC(=O)OCc1cn(Cc2ccncc2)c(Sc2cc(Cl)cc(Cl)c2)c1C1CCCCC1", "method": "nucleotide incorporation / radiometric", "endpoint": "IC50", "value": "0.34 µM"}
{"SMILES": "C=C(C)[C@@H]1CC[C@@]2(C)[C@H]1[C@H]1CC[C@@H]3[C@@]4(C)CC[C@H](O)C(C)(C)[C@@H]4CC[C@@]3(C)[C@]1(C)C[C@@H]2O", "method": "nucleotide incorporation", "endpoint": "IC50", "value": "5.4 µM"}
{"SMILES": "CCN1c2cc(C)c(C)cc2N(C)S(=O)(=O)c2cccnc21", "method": "nucleotide incorporation", "endpoint": "IC50", "value": "30 µM"}
{"SMILES": "CCC1(c2ccc(Cn3ccsc3=N)cc2)Oc2ccccc2-n2cccc2C1=O", "method": "nucleotide incorporation / radiometric", "endpoint": "IC50", "changes": "RT-K103N", "value": "5 µM"}
{"SMILES": "Cc1cn([C@H]2CC[C@@H](COP(=O)(O)OP(=O)(O)OP(=O)(O)O)O2)c(=O)[nH]c1=O", "method": "nucleotide incorporation / radiometric", "endpoint": "IC50", "changes": "RT-I135M", "value": "0.09 µM"}
{"SMILES": "Cc1c(Cc2c(Cl)cccc2Cl)nc(SCc2ccc(C#N)cc2)[nH]c1=O", "method": "nucleotide incorporation / radiometric", "endpoint": "IC50", "changes": "RT-181I", "value": ">400 µM"}
{"SMILES": "CCC1(c2ccc(COc3cccc(Cl)c3)cc2)Oc2ccccc2-n2cccc2C1=O", "method": "nucleotide incorporation / radiometric", "endpoint": "IC50", "changes": "RT-K103N", "value": "0.3 µM"}
{"SMILES": "Cc1cc(C)cc(Cc2nc(OCC(C)C)[nH]c(=O)c2C)c1", "method": "nucleotide incorporation", "endpoint": "IC50", "strain": "IIIB", "value": ">10 µM"}
{"SMILES": "O=C(CSc1nnnn1-c1cc(F)ccc1Cl)Nc1ccccc1[N+](=O)[O-]", "endpoint": "IC50", "changes": "RT-K103N", "value": "0.01 µM"}
{"SMILES": "Cc1c([C@H](C)c2c(F)cccc2F)nc(SC2CCCC2)[nH]c1=O", "method": "nucleotide incorporation", "endpoint": "IC50", "value": "0.008 µM"}
{"SMILES": "Cc1c(Cc2ccc(F)cc2)nc(SCc2ccc([N+](=O)[O-])cc2)[nH]c1=O", "method": "nucleotide incorporation / radiometric", "endpoint": "IC50", "changes": "RT-K103N", "value": ">400 µM"}
{"SMILES": "Cc1cccc(Cc2cc(=O)[nH]c(OC3CCCCC3)n2)c1", "method": "nucleotide incorporation", "endpoint": "IC50", "strain": "IIIB", "value": "1.8 µM"}
{"SMILES": "NS(=O)(=O)c1ccc(NC(=O)CSc2nnnn2-c2cc(Cl)ccc2Cl)c(Cl)c1", "endpoint": "IC50", "changes": "RT-K103N", "value": "0.003 µM"}
{"SMILES": "CCN1c2ncccc2C(=O)N(C)c2ccc(-c3cccc(N)c3)nc21", "method": "nucleotide incorporation", "endpoint": "IC50", "value": "0.1 µM"}
{"SMILES": "CNc1ccc(Cl)cc1S(=O)(=O)c1ccccc1[N+](=O)[O-]", "endpoint": "IC50", "strain": "WT", "value": "11 µM"}
{"SMILES": "O=C(CSc1nnnn1-c1ccc(Cl)c(Cl)c1)Nc1ccccc1[N+](=O)[O-]", "endpoint": "IC50", "changes": "RT-K103N", "value": "0.46 µM"}
{"SMILES": "O=C(/C=C/c1ncc(-c2cccnc2)cn1)Nc1cc(-c2ccc3c(c2)CCCC3)[nH]n1", "method": "RT activity / nucleotide incorporation / luminescence", "endpoint": "IC50", "strain": "NL4-3", "changes": "K103N", "value": "0.16 µM"}
{"SMILES": "NC(=O)OCc1cn(Cc2ccncc2)c(Sc2cc(Cl)cc(Cl)c2)c1C1CCC1", "method": "nucleotide incorporation / radiometric", "endpoint": "IC50", "value": "0.04 µM"}
{"SMILES": "Cc1c(Cc2c(Cl)cccc2Cl)nc(SCc2ccc(C(C)C)cc2)[nH]c1=O", "method": "nucleotide incorporation / radiometric", "endpoint": "IC50", "strain": "WT", "value": ">400 µM"}
{"SMILES": "CONC(=O)c1cn(Cc2ccncc2)c(Sc2cc(Cl)cc(Cl)c2)c1C(C)C", "method": "nucleotide incorporation / radiometric", "endpoint": "IC50", "value": "1 µM"}
{"SMILES": "Cc1c(Cc2c(Cl)cccc2Cl)nc(SCc2ccc(O)cc2)[nH]c1=O", "method": "nucleotide incorporation / radiometric", "endpoint": "IC50", "strain": "WT", "value": ">400 µM"}
{"SMILES": "OCc1cn(Cc2ccncc2)c(Sc2cc(Cl)cc(Cl)c2)c1C1CC1", "method": "nucleotide incorporation / radiometric", "endpoint": "IC50", "value": "0.43 µM"}
{"SMILES": "CCC1(c2cccc(Cl)c2)Oc2ccccc2-n2cccc2C1=O", "method": "nucleotide incorporation / radiometric", "endpoint": "IC50", "changes": "RT-L100I", "value": "0.6 µM"}
{"SMILES": "O=C(Nc1nnc(-c2ccc3c(c2)CCCC3)o1)C1=COCCO1", "method": "RT activity / nucleotide incorporation / luminescence", "endpoint": "IC50", "strain": "NL4-3", "changes": "K103N/Y181C", "value": "0.75 µM"}
{"SMILES": "CCC1(c2ccc(CCc3ccccc3)cc2)Oc2ccccc2-n2cccc2C1=O", "method": "nucleotide incorporation / radiometric", "endpoint": "IC50", "changes": "RT-Y188L", "value": ">10 µM"}
{"SMILES": "Cc1c(Cc2c(Cl)cccc2Cl)nc(SCc2ccc3c(c2)C(=O)c2ccccc2C3=O)[nH]c1=O", "method": "nucleotide incorporation / radiometric", "endpoint": "IC50", "changes": "RT-K103N", "value": ">400 µM"}

7 of the rows above, restated:

SMILES,method,endpoint,strain,changes,value
CCC1(c2cccc(I)c2)Oc2ccccc2-n2cccc2C1=O,nucleotide incorporation / radiometric,IC50,,RT-K103N,>10 µM
C=C(C)[C@@H]1CC[C@]2(C)CC[C@]3(C)[C@H](CC[C@@H]4[C@@]5(C)CCC(=O)C(C)(C)[C@@H]5CC[C@]43C)[C@@H]12,nucleotide incorporation,IC50,,,2.1 µM
CCC1(c2ccc(COc3ccccc3)cc2)Oc2ccccc2-n2cccc2C1=O,nucleotide incorporation / radiometric,IC50,,RT-V106A,0.8 µM
NS(=O)(=O)c1ccc(NC(=O)CSc2nnnn2-c2cc(Cl)ccc2Cl)c(Cl)c1,,IC50,,RT-K103N,0.003 µM
CONC(=O)c1cn(Cc2ccncc2)c(Sc2cc(Cl)cc(Cl)c2)c1C(C)C,nucleotide incorporation / radiometric,IC50,,,1 µM
O=C(Nc1cc(-c2ccc3c(c2)CCCC3)[nH]n1)c1cccs1,RT activity / nucleotide incorporation / luminescence,IC50,NL4-3,WT,1.5 µM
CC(C)C[C@@H](c1c(O)c(C=O)c(O)c(C=O)c1O)[C@@]1(C)CC[C@@H]2[C@@H]1[C@H]1[C@@H](CC[C@@]2(C)O)C1(C)C,RT activity,IC50,,,10 µM

ICn is the concentration giving n% inhibition. Lines come from different laboratories, so protocols vary.